# Test system: M. tuberculosis H37Rv-ΔcydAB
# Assay type: cell-based
structure (smiles),measurement,value
CCc1nc2ccc(Cl)cn2c1C(=O)NCc1ccc(N2CCC(c3ccc(OC(F)(F)F)cc3)CC2)cc1 [Q203],fold more sensitive than M. smegmatis cytochrome bd knockout strain,1000 fold

# Source: paper PMC11964921 (npj Drug Discovery, 2025)
